Test results reported in publication PMC2829070 (PLoS Pathogens, 2010).
pIC50: −log10 of the molar value.

Target: NA of HN30408 clone7 (A/Hanoi/30408/05, H5N1, oseltamivir-sensitive) (Influenza A virus, UniProt Q3C1C4)
Assay: NA activity inhibition assay (MUNANA)

Q: How did the pIC50 turn out when `CC(=O)N[C@H]1[C@H]([C@H](O)[C@H](O)CO)OC(C(=O)O)=C[C@@H]1N=C(N)N` [Zanamivir] was run?
A: Its pIC50 is 9.14.
